Pooled drug test results. Numbers come from NIAID ChemDB, via PubChem.

Common to all: growth or infection tests; agent: Mycobacterium tuberculosis

Inhibition is in % at the dose shown (toxicity tests: loss of growth or viability). MIC bound: limit read from a one-dose screen. MIC50, MIC90 and the like: level of inhibition, or share of isolates inhibited. Conditions beyond the fields shown may differ between rows. Blank or dashed fields: not listed here. ECn: concentration that inhibits the pathogen or its effect by n%.

smiles,dose,conditions,read-out,strain or isolate,read by,result
CCOC(=O)c1c(-c2ccc(C(C)C)cc2)cc2c3ccccc3ccn12,-,-,MIC,H37Rv,agar,7.8 µM
CSC(=S)N/N=C/c1nccc(-c2ccccc2)c1C,128 µg/mL,-,inhibition,H37Rv,BACTEC,95%
COc1cc(OC)c(-c2c([N+](=O)[O-])c3ccccn3c2C#N)c(OC)c1,-,-,MIC,H37Rv,agar,>85 µM
Fc1ccc(-n2ncc(C(c3ccccc3)n3ccnc3)c2-c2ccccc2)c(F)c1,-,-,MIC50,ATCC 27294,-,57.5 µM
CCCCOc1ccc(Nc2c[nH]c(=O)[nH]c2=O)cc1,-,-,MIC99,H37Rv,turbidity,5 µg/mL
C/C=C(/C)C(=O)OC1CC(C)(C)CC2C3=CCC4C5(C)CC[C@H](O)C(C)(C)C5CC[C@@]4(C)[C@]3(C)CC[C@@]12C(=O)O,-,-,MIC,H37Rv (ethambutol-resistant),-,50 µg/mL
CC1(C)CC[C@]2(C(=O)O)CC[C@]3(C)C(=CCC4[C@@]5(C)CC[C@H](O)C(C)(C)C5CC[C@]43C)C2C1,-,-,MIC,H37Rv,-,28.7 µg/mL
COc1ccc(-c2c([N+](=O)[O-])c3c4ccccc4ccn3c2C#N)cc1,-,-,MIC,H37Rv,agar,36.4 µM
Cc1[nH]c(C)c(CN2CCOCC2)c1CN1CCOCC1,-,-,MIC,103471,-,>64 µg/mL
O=C(Nc1ccccc1SC(/C=C/NNC1=NC(c2ccccc2)C(c2ccccc2)=NN1)c1ccccc1)c1ccc(Cl)cc1Cl,-,-,MIC bound,H37Rv,BACTEC,>12.5 µg/mL
Fc1ccccc1-n1ncc(C(c2ccccc2)n2ccnc2)c1-c1ccccc1,-,-,MIC50,ATCC 35820 (streptomycin-resistant),-,≥100 µM
COC(=O)c1c(Cc2ccccc2)n([O-])c2ccccc2[n+]1=O,-,inside macrophages,EC99,H37Rv,-,>2 µg/mL
CCCCCCn1c(C)c(CN2CCN(C)CC2)c(CN2CCN(C)CC2)c1-c1ccc(Cl)cc1,-,-,MIC,103471,-,8 µg/mL
CN(C)c1c(Cl)c(=O)oc2c1ccc1nc(-c3ccccc3)ncc12,-,-,MIC bound,H37Rv,BACTEC,>12.5 µg/mL
OCC(Cc1ccc2c(c1)OCO2)C(CO)Cc1ccc2c(c1)OCO2,128 µg/mL,-,inhibition,H37Rv,resazurin,65%
Cc1c(CN2CCN(C)CC2)cc(-c2ccc(Cl)cc2)n1-c1ccc(Cl)cc1,-,-,MIC,103471,-,0.7 µg/mL
CP(=O)(N/N=C/C(=O)O)c1ccccc1,12.5 µg/mL,-,inhibition,H37Rv,BACTEC,0%
O=[N+]([O-])c1ccc(Sc2cccc(Cl)c2Cl)c2ncccc12,-,-,MIC,H37Rv,-,>200 µg/mL
Cc1[nH]c(-c2ccc(Cl)cc2)cc1CN1CCOCC1,-,-,MIC,103471,-,>64 µg/mL
COC(=O)c1ccc(CCC2=CC(=O)C(Br)=CC2=O)cc1,-,-,MIC bound,H37Rv,resazurin,>6.25 µg/mL
Nc1ccc(S(=O)(=O)c2nc3ccccc3s2)c2ncccc12,-,-,MIC,H37Rv,-,100 µg/mL
Cc1cc(Cl)[nH]c2ccc3c(=O)c(C(=O)NN)cnc3c12,-,-,MIC,H37Rv,-,200 µg/mL
CC(C)=CCCC(=O)Cc1nc2nnc(N)n2nc1CC(=O)CCC=C(C)C,12.5 µg/mL,-,inhibition,H37Rv,BACTEC,0%
CCOC(=O)SCC,-,-,MIC,H37Rv,-,>100 µg/mL
Cc1ccc(-c2nc3sc(S(N)(=O)=O)nn3c2SC#N)cc1,-,-,MIC,H37Rv,-,>6.25 µg/mL
C=C(C)[C@@H]1CC[C@]2(CO)CC[C@]3(C)C(CCC4[C@@]5(C)CC[C@H](O)C(C)(C)C5CC[C@]43C)C12,-,-,MIC,H37Rv,-,30 µg/mL
COc1ccc2c(=O)cc(-c3ccc(OC)c(O)c3)oc2c1,128 µg/mL,-,inhibition,H37Rv,resazurin,13.9%
COc1cc(-c2oc3cc(O)cc(O)c3c(=O)c2O[C@@H]2O[C@H](CO[C@@H]3O[C@@H](C)[C@H](O)[C@@H](O)[C@H]3O)[C@@H](O)[C@H](O)[C@H]2O)ccc1O,-,-,MIC,H37Rv,-,>128 µg/mL
COc1ccc(-c2cn3nc(C(F)(F)F)sc3n2)cc1,-,-,MIC,H37Rv,-,>6.25 µg/mL
Cc1c(CN2CCOCC2)c(CN2CCOCC2)c(C)n1C1CCCCC1,-,-,MIC,103471,-,>64 µg/mL
NC(=Nc1ccc(S(=O)(=O)Nc2cnc3ccccc3n2)cc1)/N=C(\N)Nc1ccc(Br)cc1,-,-,MIC,H37Rv,resazurin,3.13 µg/mL
Cc1c(CN2CCSCC2)cc(-c2ccc(F)cc2)n1-c1ccc(Cl)cc1,-,-,MIC,103471,-,2 µg/mL
Nc1ccc(Sc2ccc(Cl)c(Cl)c2)c2ncccc12,-,-,MIC,H37Rv,-,1 µg/mL
CSC(=S)NN=C(c1ccccn1)c1ccccn1,-,-,MIC bound,H37Rv,BACTEC,≤128 µg/mL
CC[C@H](CC[C@@H](C)[C@H]1CC[C@H]2[C@@H]3CC=C4C[C@@H](O[C@@H]5O[C@H](CO)[C@@H](O)[C@H](O)[C@H]5O)CC[C@]4(C)[C@H]3CC[C@]12C)C(C)C,-,-,MIC,H37Rv,-,>128 µg/mL
O=[N+]([O-])c1ccc(Oc2cc(Cl)ccc2Cl)c2ncccc12,-,-,MIC,H37Rv,-,10 µg/mL
COc1cc(-c2oc3cc(O)cc(O)c3c(=O)c2O[C@@H]2C[C@H](CO)[C@@H](O)[C@H](O)[C@H]2O)ccc1O,-,-,MIC,H37Rv,-,>128 µg/mL
Cc1cc(Cl)[nH]c2ccc3c(=O)c(C(=O)NN4C(=O)C(Cl)C4c4ccc(Cl)cc4)cnc3c12,-,-,MIC,H37Rv,-,100 µg/mL
CCC(S)CC(=O)OC=O,-,-,MIC,H37Rv,-,5 µg/mL
Cc1cc2c(cc1C)[n+]([O-])c(-c1nc3ccccc3s1)c(N)[n+]2[O-],12.5 µg/mL,-,inhibition,H37Rv,BACTEC,100%
Cc1ccc(Oc2ccc(N)c3cccnc23)cc1C,-,-,MIC,H37Rv,-,40 µg/mL
NNC(=O)c1ccncc1,-,-,MIC50,ATCC 35837 (ethambutol-resistant),-,0.1 µM
O=C(O)/C=C/c1ccc(O)cc1,-,-,MIC,H37Rv,-,>128 µg/mL
Clc1ccc(-c2c(C(c3ccccc3)n3ccnc3)cnn2-c2ccc(Cl)cc2)cc1,-,-,MIC50,ATCC 35837 (ethambutol-resistant),-,≥100 µM
O=[N+]([O-])c1ccc(Sc2nc3ccccc3s2)c2ncccc12,-,-,MIC,H37Rv,-,100 µg/mL
CCN(CC)C(=O)c1c(C(=O)OC)c(C)n(NC(N)=O)c1C,-,-,MIC bound,H37Rv,resazurin,>6.25 µg/mL
N#CSc1c(-c2ccc(Cl)cc2)nc2sc(S(N)(=O)=O)nn12,6.25 µg/mL,-,inhibition,H37Rv,-,3%
CC(=O)N[C@@H](CS)C(=O)O,-,-,MIC,H37Rv,-,>100 µg/mL
O=c1[nH]c(=O)n(C2C=CC(O)C2)cc1Nc1ccc(Oc2ccccc2)cc1,-,-,MIC99,H37Rv,turbidity,40 µg/mL
O=C1OCC(Cc2ccc3c(c2)OCO3)C1Cc1ccc2c(c1)OCO2,128 µg/mL,-,inhibition,H37Rv,resazurin,80.8%
S=C(S)Nc1ccc(Cl)cc1,-,-,MIC,H37Rv,-,12.5 µg/mL
C[C@@H]1CC[C@]2(C(=O)O)CC[C@]3(C)C(=CCC4[C@@]5(C)CC[C@H](O)[C@](C)(CO)C5CC[C@]43C)C2[C@H]1C,-,-,MIC,H37Rv,-,15.5 µg/mL
O=[N+]([O-])c1ccc(-c2ccc(C3=Nn4c(CNc5ccccc5Cl)nnc4SC3)o2)cc1,12.5 µg/mL,-,inhibition,H37Rv,BACTEC,15%
O=[N+]([O-])c1ccc(Sc2nccs2)c2ncccc12,-,-,MIC,H37Rv,-,100 µg/mL
O=c1c(O[C@@H]2C[C@H](CO)[C@@H](O)[C@H](O)[C@H]2O)c(-c2ccc(O)c(O)c2)oc2cc(O)cc(O)c12,-,-,MIC,H37Rv,-,>128 µg/mL
CN(CC(=O)NN)c1ccc2ccccc2c1,-,-,EC50,H37Rv,-,2 µg/mL
CCSSSCC,-,-,MIC,H37Rv,-,>100 µg/mL
Cc1ccc(S(=O)(=O)NNC(=O)CCn2[nH]c(=O)c(Cl)c(Cl)c2=O)cc1,-,-,MIC bound,H37Rv,BACTEC,>12.5 µg/mL
NNC(=O)CNc1ccc2ccccc2c1,-,-,EC50,Drug-resistant,-,0.5 µg/mL
CC[C@H](/C=C/[C@@H](C)[C@H]1CC[C@H]2[C@@H]3C(=O)C=C4C[C@@H](O)CC[C@]4(C)[C@H]3CC[C@]12C)C(C)C,-,-,MIC,H37Rv,-,1 µg/mL
Cc1ccc(-c2c([N+](=O)[O-])c3ccccn3c2C#N)cc1,-,-,MIC,H37Rv,agar,45.1 µM
Cn1c2ccccc2c2nnc(N/N=C/c3ccc([N+](=O)[O-])o3)nc21,-,-,MIC,H37Rv,BACTEC,≥12.5 µg/mL
C#CCn1nc(-c2ccc(Cl)cc2)ccc1=O,-,-,EC50,H37Rv (ATCC 27294),resazurin,24.73 µg/mL
CCSC1=CSCN1,-,-,MIC,H37Rv,-,50 µg/mL
Fc1ccc(-c2cn3nc(C(F)(F)F)sc3n2)cc1,-,-,MIC,H37Rv,-,50 µg/mL
Fc1ccccc1-c1c(C(c2ccccc2)n2ccnc2)cnn1-c1ccccc1F,-,-,MIC50,ATCC 35837 (ethambutol-resistant),-,≥100 µM
Cc1cc(Cl)[nH]c2ccc3c(=O)c(C(=O)NN=Cc4cccc([N+](=O)[O-])c4O)cnc3c12,-,-,MIC,H37Rv,-,62.5 µg/mL
CO[C@H]1/C=C/O[C@@]2(C)Oc3c(C)c(O)c4c(O)c(c(/C=N/N5CCN(C)CC5)c(O)c4c3C2=O)NC(=O)/C(C)=C\C=C\[C@H](C)[C@H](O)[C@@H](C)[C@@H](O)[C@@H](C)[C@H](OC(C)=O)[C@@H]1C,-,-,MIC90,ATCC 35820 (streptomycin-resistant),-,1.1 µM
CCOC(=O)c1c(-c2ccc(C)cc2)cc2c3ccccc3ccn12,-,-,MIC,H37Rv,agar,16.7 µM
CCCCC(=O)N/N=C/c1c(O)ccc2ccccc12,-,-,MIC,H37Rv,BACTEC,≥12.5 µg/mL
N#Cc1c(-c2ccc(F)cc2)c([N+](=O)[O-])c2c3ccccc3ccn12,-,-,MIC,H37Rv,agar,2.3 µM
Fc1ccc(-n2ncc(C(c3ccccc3)n3ccnc3)c2-c2ccccc2)cc1,-,-,MIC90,ATCC 27294,-,>100 µM
NC1=NNC(=O)/C1=C\c1ccccc1,-,-,MIC bound,H37Rv,BACTEC,>12.5 µg/mL
CCOC(=O)c1c(-c2ccc(Cl)cc2)c([N+](=O)[O-])c2ccccn12,-,-,MIC,H37Rv,agar,9.1 µM
CC1CN(C(=O)/C=C/C(=O)OC2CCCCC2)CCN1C(=O)/C=C/C(=O)OC1CCCCC1,-,-,MIC bound,H37Rv,BACTEC,≤12.5 µg/mL
COc1cc([C@H]2OC[C@]3(O)[C@@H](c4ccc(O)c(OC)c4)OC[C@]23O)ccc1O,-,-,MIC,H37Rv,-,>128 µg/mL
O=[N+]([O-])c1ccc(S(=O)(=O)c2cc(Cl)ccc2Cl)c2ncccc12,-,-,MIC,H37Rv,-,>200 µg/mL
Cc1ccc(Nc2c[nH]c(=O)[nH]c2=O)cc1,-,-,MIC99,H37Rv,turbidity,10 µg/mL
NNC(=O)c1cc(-c2ccccc2)nc2ccccc12,-,-,MIC bound,H37Rv,BACTEC,>12.5 µg/mL
N#Cc1c(-c2ccc(Cl)cc2)c([N+](=O)[O-])c2ccccn12,-,-,MIC,H37Rv,agar,21 µM
c1cncc(C2Nc3cccc4cccc(c34)N2)c1,-,-,MIC bound,H37Rv,BACTEC,>128 µg/mL
Cc1[nH]c(-c2ccc(Cl)cc2)cc1CN1CCN(C)CC1,-,-,MIC,103471,-,8 µg/mL
COc1cc(-c2cc(=O)c3c(O)cc(O)cc3o2)cc(OC)c1O,-,-,MIC,H37Rv,-,58.5 µg/mL
CO[C@H]1/C=C/O[C@@]2(C)Oc3c(C)c(O)c4c(=O)c(c5oc6cc(N7CCN(CC(C)C)CC7)cc(=O)c6nc5c4c3=C2O)NC(=O)/C(C)=C\C=C\[C@H](C)[C@H](O)[C@@H](C)[C@@H](O)[C@@H](C)[C@H](OC(C)=O)[C@@H]1C,-,-,MIC,Kurata,-,0.016 µg/mL
COc1ccc(-c2oc3cc(O)c(OC)c(O)c3c(=O)c2OC)cc1,-,-,MIC,H37Rv,-,46.2 µg/mL
CN(C)c1ccc2[nH]c3c(C([NH3+])=O)cc(=O)c(=O)c=3oc2c1.[Cl-],12.5 µg/mL,-,inhibition,H37Rv,BACTEC,1%
Clc1ccc(-n2ncc(C(c3ccccc3)n3ccnc3)c2-c2ccccc2)cc1,-,-,MIC50,ATCC 35837 (ethambutol-resistant),-,≥100 µM

Repeating the final 8 entries:

smiles	dose	conditions	read-out	strain or isolate	read by	result
N#Cc1c(-c2ccc(Cl)cc2)c([N+](=O)[O-])c2ccccn12	-	-	MIC	H37Rv	agar	21 µM
c1cncc(C2Nc3cccc4cccc(c34)N2)c1	-	-	MIC bound	H37Rv	BACTEC	>128 µg/mL
Cc1[nH]c(-c2ccc(Cl)cc2)cc1CN1CCN(C)CC1	-	-	MIC	103471	-	8 µg/mL
COc1cc(-c2cc(=O)c3c(O)cc(O)cc3o2)cc(OC)c1O	-	-	MIC	H37Rv	-	58.5 µg/mL
CO[C@H]1/C=C/O[C@@]2(C)Oc3c(C)c(O)c4c(=O)c(c5oc6cc(N7CCN(CC(C)C)CC7)cc(=O)c6nc5c4c3=C2O)NC(=O)/C(C)=C\C=C\[C@H](C)[C@H](O)[C@@H](C)[C@@H](O)[C@@H](C)[C@H](OC(C)=O)[C@@H]1C	-	-	MIC	Kurata	-	0.016 µg/mL
COc1ccc(-c2oc3cc(O)c(OC)c(O)c3c(=O)c2OC)cc1	-	-	MIC	H37Rv	-	46.2 µg/mL
CN(C)c1ccc2[nH]c3c(C([NH3+])=O)cc(=O)c(=O)c=3oc2c1.[Cl-]	12.5 µg/mL	-	inhibition	H37Rv	BACTEC	1%
Clc1ccc(-n2ncc(C(c3ccccc3)n3ccnc3)c2-c2ccccc2)cc1	-	-	MIC50	ATCC 35837 (ethambutol-resistant)	-	≥100 µM